Consider nine molecules from patent publication US20250275988A1, “FORMULATION FOR TREATING URINARY SYSTEM DISORDERS” (WATERSHED MEDICAL, INC., priority 2022, published 2025).

The nature of the data set: density and max drug loading of antimicrobial agents considered for carrier particles. The class given is physicochemical. As to conditions: Table 7.
As to `CC(C)(O/N=C(\C(=O)N[C@@H]1C(=O)N2C(C(=O)[O-])=C(C[n+]3ccccc3)CS[C@H]12)c1csc(N)n1)C(=O)O` [Ceftazidime], the “Max Drug Loading” value amounted to 18%.
The result for `[H]/N=C(\N/C(=N/[H])NCCCCCCNC(=N)NC(=N)Nc1ccc(Cl)cc1)Nc1ccc(Cl)cc1` [Chlorohexidine] reads 28%.
The result for `C[C@@H](O)[C@H]1C(=O)N2C(C(=O)O)=C(S[C@@H]3CN[C@H](C(=O)Nc4cccc(C(=O)O)c4)C3)[C@H](C)[C@H]12` [Ertapenem] reads 18%; that for `C[C@@H](O)[C@H]1C(=O)N2C(C(=O)O)=C(S[C@@H]3CN[C@H](C(=O)N(C)C)C3)[C@H](C)[C@H]12` [Meropenem], 21%.
Take `CO/N=C(\C(=O)N[C@@H]1C(=O)N2C(C(=O)[O-])=C(C[N+]3(C)CCCC3)CS[C@H]12)c1csc(N)n1` [Cefepime]: the “Max Drug Loading” value is given as 18%.
For `CO[C@@]1(NC(=O)Cc2cccs2)C(=O)N2C(C(=O)O)=C(COC(N)=O)CS[C@@H]21` [Cefoxitin], the “Max Drug Loading” value was 18%.
To `C[C@H]1[C@H](NC(=O)/C(=N\OC(C)(C)C(=O)O)c2csc(N)n2)C(=O)N1S(=O)(=O)O` [Aztreoman] belongs 16%; to `NCC[C@H](O)C(=O)N[C@@H]1C[C@H](N)[C@@H](O[C@H]2O[C@H](CN)[C@@H](O)[C@H](O)[C@H]2O)[C@H](O)[C@H]1O[C@H]1O[C@H](CO)[C@@H](O)[C@H](N)[C@H]1O` [Amikacin], 18%.
The result for `NC[C@H]1O[C@H](O[C@H]2[C@H](O)[C@@H](O[C@H]3O[C@H](CO)[C@@H](O)[C@H](N)[C@H]3O)[C@H](N)C[C@@H]2N)[C@H](N)C[C@@H]1O` [Tobramycin] reads 20%.
